Results deposited as PubChem BioAssay AID504761 (Drosophila RNAi Screening Center, 2011).

Purpose: 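Insect host genes that dengue virus relies on to spread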 (primary screen)
Cells: D.Mel-2 cells from Drosophila
Reagents: long dsRNA against Drosophila genes
Treatment: infection with dengue virus type 2; dose and infection time not stated
Measured: 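Per well on two replicate plates, imaging gave the percent of cells positive for viral envelope protein, ranked by infection, and a nuclear count of cells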
Reading the numbers: infection score: higher = more virus-infected cells; cell count: higher = more cells in the well
Call rule: 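Low infection ranks in the two replicates (chance level up to 0.065) followed by a retest with a 1.5-fold or larger significant decrease, p below 0.05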
Calls: active = confirmed: knock-down lowers infection; inactive = not picked or not confirmed
The screen tested about 22,000 reagents; below is a random part of those with a known target gene and a result. In the full data, 116 (0.52%) got an active call. 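Calls depend on retest data that are not deposited; infection was ranked per plate without normalising between plates; the unit of the infection score is not given.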 Raw values vary from plate to plate and are shown uncorrected. A plus sign joins genes that one reagent is predicted to hit. Not given: the amount of reagent, the time to read-out.

The opening 2 records, to show the layout:
| gene knocked down | dsRNA | infection score, replicate 1 | infection score, replicate 2 | cell count, replicate 1 | cell count, replicate 2 | call |
| --- | --- | --- | --- | --- | --- | --- |
| Mat1 (Menage a trois 1) | DRSC07465 | 3.84 | 3.06 | 6597 | 6741 | inactive |
| Mat1 (Menage a trois 1) | DRSC25955 | 6.37 | 3.74 | 6330 | 6473 | inactive |

The listing, repeating the preview:
| gene knocked down | dsRNA | infection score, replicate 1 | infection score, replicate 2 | cell count, replicate 1 | cell count, replicate 2 | call |
| --- | --- | --- | --- | --- | --- | --- |
| Mat1 (Menage a trois 1) | DRSC07465 | 3.84 | 3.06 | 6597 | 6741 | inactive |
| Mat1 (Menage a trois 1) | DRSC25955 | 6.37 | 3.74 | 6330 | 6473 | inactive |
| Grp170 (Grp170 co-chaperone) | DRSC18524 | 3.14 | 2.39 | 6266 | 6603 | inactive |
| Grp170 (Grp170 co-chaperone) | DRSC24799 | 2.66 | 2.94 | 6015 | 6026 | inactive |
| CG31029 | DRSC15422 | 5.61 | 4.01 | 3511 | 6765 | inactive |
| CG31029 | DRSC29559 | 25.2 | – | 5902 | 421 | inactive |
| Cpsf6 (Cleavage and polyadenylation specific factor 6) | DRSC10781 | 3.96 | 1.53 | 5584 | 5740 | inactive |
| Ldh (Lactate dehydrogenase) | DRSC11198 | 0.55 | 3.3 | 5992 | 5938 | inactive |
| CG9294 | DRSC04537 | 5.86 | 3.65 | 6999 | 7181 | inactive |
| CG33262 | DRSC22893 | 1.69 | 4.82 | 5908 | 5726 | inactive |
| Archease | DRSC16025 | 6.96 | 1.52 | 6622 | 6137 | inactive |
| Gapdh2 (Glyceraldehyde 3 phosphate dehydrogenase 2) | DRSC20246 | 5.67 | 4.95 | 6088 | 6754 | inactive |
| Gapdh2 (Glyceraldehyde 3 phosphate dehydrogenase 2) | DRSC24596 | 6.5 | 1.39 | 6095 | 5963 | inactive |
| Use1 (Unconventional SNARE in the ER 1) | DRSC10180 | 0.89 | 4.71 | 6065 | 5818 | inactive |
| Use1 (Unconventional SNARE in the ER 1) | DRSC26772 | 3.95 | 7.11 | 6052 | 6328 | inactive |
| Pde9 (Phosphodiesterase 9) | DRSC19746 | 9.66 | 5.93 | 5940 | 5191 | inactive |
| Pde9 (Phosphodiesterase 9) | DRSC19874 | 6.29 | 27.6 | 5516 | 5048 | inactive |
| Pde9 (Phosphodiesterase 9) | DRSC19875 | – | 16.7 | 347 | 5768 | inactive |
| Pde9 (Phosphodiesterase 9) | DRSC19876 | 11.9 | 13.1 | 3870 | 4287 | inactive |
| Pde9 (Phosphodiesterase 9) | DRSC25304 | 1.24 | 2.07 | 6592 | 6182 | inactive |
| SLIRP2 (SRA stem-loop interacting RNA binding protein 2) | DRSC16363 | 10.8 | 13.8 | 2794 | 5514 | inactive |
| SLIRP2 (SRA stem-loop interacting RNA binding protein 2) | DRSC26237 | 3.27 | 5.56 | 6294 | 6079 | inactive |
| Tim17b1 | DRSC12179 | 5.47 | 7.63 | 6923 | 6019 | inactive |
| Glut1 (Glucose transporter 1) | DRSC07927 | 2.74 | 1.35 | 6315 | 5869 | inactive |
| Glut1 (Glucose transporter 1) | DRSC08662 | 19.6 | 14 | 6097 | 4613 | inactive |
| Ptx1 | DRSC16804 | 2.75 | 4.59 | 6370 | 6815 | inactive |
| Ptx1 | DRSC25321 | 0.73 | 10.2 | 6982 | 6212 | inactive |
| CG12519 | DRSC29810 | 19.4 | 5.91 | 6567 | 6175 | inactive |
| Cpr47Ee (Cuticular protein 47Ee) | DRSC23164 | 2.85 | 27.9 | 6628 | 5645 | inactive |
| CycA (Cyclin A) | DRSC09132 | 1.57 | 1.22 | 1274 | 1226 | inactive |
| CycA (Cyclin A) | DRSC11123 | 23.2 | 9.96 | 2712 | 1135 | inactive |
| CG9649 | DRSC16534 | 9.28 | 14.7 | 6824 | 6457 | inactive |
| CG9649 | DRSC23552 | 6.62 | 6.95 | 6423 | 6935 | inactive |
| VGAT (Vesicular GABA Transporter) | DRSC07160 | 5.38 | 3.86 | 7120 | 7018 | inactive |
| Rfx | DRSC16820 | 9.34 | 21.6 | 6756 | 5514 | inactive |
| shi (shibire) | DRSC20373 | 1.38 | 3.47 | 5579 | 4549 | inactive |
| shi (shibire) | DRSC29498 | – | 4.29 | 284 | 700 | inactive |
| euc (eucalyptus) | DRSC14492 | 8.39 | 0.83 | 5649 | 6500 | inactive |
| Or65c (Odorant receptor 65c) | DRSC21312 | 2.33 | 5.4 | 6322 | 6985 | inactive |
| CG12290 | DRSC14497 | 2.2 | 1.44 | 6319 | 6522 | inactive |
| CG12290 | DRSC28328 | 20.1 | 2.23 | 5752 | 2283 | inactive |
| CG5112 | DRSC15718 | 3.44 | 2.8 | 6272 | 6542 | inactive |
| CG4896 | DRSC00671 | 6.44 | 2.89 | 6013 | 6822 | inactive |
| CG4896 | DRSC24570 | 2.44 | 7.91 | 5610 | 6432 | inactive |
| bru3 (bruno 3) | DRSC09280 | 8.82 | 2.57 | 6267 | 7012 | inactive |
| bru3 (bruno 3) | DRSC09687 | 7.63 | 10.8 | 5977 | 6528 | inactive |
| bru3 (bruno 3) | DRSC09887 | 0.52 | 0.72 | 6578 | 6845 | inactive |
| bru3 (bruno 3) | DRSC22732 | 3.72 | 7.19 | 7392 | 6578 | inactive |
| bru3 (bruno 3) | DRSC28166 | 26.8 | 19.4 | 5467 | 6901 | inactive |
| Ltn1 (Listerin E3 ubiquitin protein ligase 1) | DRSC11056 | 8.22 | 11.9 | 6438 | 6582 | inactive |
| Ltn1 (Listerin E3 ubiquitin protein ligase 1) | DRSC11058 | 1.34 | 3.65 | 6561 | 6321 | inactive |
| CG7888 | DRSC10926 | 4.81 | 7.4 | 6606 | 6270 | inactive |
| Pld3 (Phospholipase D family member 3) | DRSC03167 | 3.68 | 13.5 | 6113 | 2657 | inactive |
| Jhedup (Juvenile hormone esterase duplication) | DRSC07173 | 2.08 | 12.9 | 6777 | 6385 | inactive |
| CG34234 + Dh44-R2 | DRSC07278 | 10.9 | 6.27 | 6231 | 5979 | inactive |
| CG1620 | DRSC06603 | 32.8 | 21.1 | 5788 | 6132 | inactive |
| CG1620 | DRSC29378 | 17.2 | 30.8 | 4705 | 4279 | inactive |
| CG15483 | DRSC02493 | 0.86 | 7.36 | 700 | 5978 | inactive |
| Ipp (Inositol polyphosphate 1-phosphatase) | DRSC16718 | 0.75 | 2.99 | 6559 | 6428 | inactive |
| Ipp (Inositol polyphosphate 1-phosphatase) | DRSC26058 | 5.39 | 3.11 | 6086 | 6083 | inactive |
| CG6415 | DRSC02954 | 35.5 | 8.09 | 5350 | 5602 | inactive |
| CG6415 | DRSC29833 | 21 | 6.3 | 6118 | 6395 | inactive |
| Gr22d (retired record) | DRSC21653 | 1.19 | 2.73 | 5969 | 6516 | inactive |
| Gr22d (retired record) | DRSC25985 | 3.8 | 4.6 | 6821 | 6398 | inactive |
| CG31975 + ovm | DRSC00323 | 2.62 | 4.98 | 6413 | 6812 | inactive |
| RpL23 (Ribosomal protein L23) | DRSC04648 | 19.6 | 20.3 | 4805 | 5082 | inactive |
| NaPi-T (Na[+]-dependent inorganic phosphate cotransporter) | DRSC07476 | 17.4 | 19.5 | 5768 | 5166 | inactive |
| NaPi-T (Na[+]-dependent inorganic phosphate cotransporter) | DRSC24468 | 3.59 | 1.81 | 5482 | 5958 | inactive |
| Doc3 (Dorsocross3) | DRSC10480 | 3.69 | 8.84 | 5418 | 5884 | inactive |
| Doc3 (Dorsocross3) | DRSC28205 | 17.6 | 8.56 | 2309 | 2161 | inactive |
| CG17168 | DRSC20904 | 13.5 | 2.66 | 4589 | 4516 | inactive |
| CG17168 | DRSC29872 | 46.1 | 27 | 4023 | 5594 | inactive |
| CG14421 | DRSC17918 | 5.02 | 5.02 | 5441 | 5632 | inactive |
| CG14421 | DRSC25245 | 4.54 | 7.03 | 6188 | 6246 | inactive |
